Experiment [1] deals with apple scab fungus (Venturia inaequalis). The experiment is described as follows: Control test of apple scab (sprayed seedlings). Conditions: 125 ppm by mass sprayed on apple seedlings (cultivar "Orin", 3 or 4 leaf stage); lesion area rate twelve to fourteen days after inoculation, 20°C. As for the experimental part: Water was added to the emulsifiable concentrate (1) so that the concentration of the 5-membered heteroaryl compound according to the embodiment of the present invention was 125 ppm by mass, thereby obtaining a chemical solution. Subsequently, the chemical solution was sprayed onto apple seedlings (cultivar "Orin", 3 or 4 leaf stage) grown in seedling pots, and then air-dried. Thereafter, conidia of the apple scab fungus (Venturia inaequalis) were inoculated onto the seedlings (treated plot). As a control, the same inoculation was performed on apple seedlings onto which the chemical solution had not been sprayed (untreated control). The seedlings were allowed to stand in a humid chamber at 20°C under alternating 12-hour light and dark cycles.
Twelve to fourteen days after inoculation, the leaves of the apple seedlings were visually observed, and a control value was calculated from the lesion area rate using the formula employed for calculating the control value in the control test for cucumber gray mold described above.

Experiment [2] relates to wheat powdery mildew fungus (Erysiphe graminis f. sp. tritici). Description: Control test of wheat powdery mildew (sprayed seedlings). Conditions: 125 ppm by mass sprayed on wheat seedlings (cultivar "Chihoku", 1 or 2 leaf stage); lesion area rate six days after inoculation, 20°C. As for the experimental part: Water was added to the emulsifiable concentrate (1) so that the concentration of the 5-membered heteroaryl compound according to the embodiment of the present invention was 125 ppm by mass, thereby obtaining a chemical solution. Subsequently, the chemical solution was sprayed onto wheat seedlings (cultivar "Chihoku", 1 or 2 leaf stage) grown in seedling pots, and air-dried. Thereafter, conidia of wheat powdery mildew fungus (Erysiphe graminis f. sp. tritici) were sprinkled and inoculated (treated plot). As a control, the conidia of wheat powdery mildew fungus (Erysiphe graminis f. sp. tritici) were sprinkled and inoculated onto wheat seedlings onto which the chemical solution had not been sprayed (untreated control). The seedlings were allowed to stand in a greenhouse at 20°C. Six days after inoculation, the leaves of the wheat seedlings were visually observed to determine the lesion area rate, and a control value was calculated in the same manner as in the previous test.

Experiment [3] deals with apple alternaria blotch fungus (Alternaria alternata). The experiment is described as follows: Fungicidal effect test against apple alternaria blotch fungus (96-well microplate, turbidity). Conditions: 25 ppm by volume; YBA medium; 25°C, 5 days; turbidity OD at 405 nm. Here is the method:
(§1) A spore suspension of gray mold fungus (Botrytis cinerea, Vogel's medium) was prepared. The 5-membered heteroaryl compound according to the embodiment of the present invention was added to dimethyl sulfoxide to obtain a chemical solution. The chemical solution and the above-described spore suspension were mixed in equal amounts (based on volume) to obtain a test solution having a concentration of the 5-membered heteroaryl compound according to the embodiment of the present invention of 25 ppm by volume. The test solution was added dropwise to a 96-well microplate (treated plot).
(§2) Dimethyl sulfoxide and the above-described spore suspension were mixed in equal amounts (based on volume) to obtain a control solution. The control solution was added dropwise to a 96-well microplate (untreated control).
(§3) These were cultured by allowing them to stand in the dark at 20°C for 5 days. The turbidity OD at a wavelength of 405 nm was measured using a microplate reader. A growth inhibition rate (%) was calculated by the following formula. Growth inhibition rate(%) = 100−100 x [formula] • {[(OD of treated plot after culturing) - (OD of treated plot before culturing)] • /[(OD of untreated control after culturing) - (OD of untreated control before culturing)]}
The turbidity was measured and the growth inhibition rate was calculated in the same manner as in the fungicidal effect test against the gray mold fungus, except that the spore suspension of gray mold fungus (Botrytis cinerea, Vogel's medium) was changed to a spore suspension of apple alternaria blotch fungus (Alternaria alternata, YBA medium), and the temperature during standing was changed to 25°C.

In experiment [4] the test system is apple anthracnose fungus (Colletotrichum acutatum). The experiment is described as follows: Fungicidal effect test against apple anthracnose fungus (96-well microplate, turbidity). Conditions: 25 ppm by volume; Czapek medium; 25°C, 4 days; turbidity OD at 405 nm. As for the experimental part:
as §1, §2, §3
The turbidity was measured and the growth inhibition rate was calculated in the same manner as in the fungicidal effect test against the gray mold fungus, except that the spore suspension of gray mold fungus (Botrytis cinerea, Vogel's medium) was changed to a spore suspension of apple anthracnose fungus (Colletotrichum acutatum, Czapek medium), and the temperature and period during standing were changed to 25°C and 4 days.

Experiment [5] relates to gray mold fungus (Botrytis cinerea). The experiment is described as follows: Fungicidal effect test against gray mold fungus (96-well microplate, turbidity). As to conditions: 25 ppm by volume; Vogel's medium; dark, 20°C, 5 days; turbidity OD at 405 nm. As for the experimental part: as §1, §2, §3
Experiment [6] deals with cucumber gray mold fungus (Botrytis cinerea). The experiment is described as follows: Control test of cucumber gray mold (sprayed seedlings). Conditions: 125 ppm by mass sprayed on cucumber seedlings (cultivar "Jibai" line, cotyledon stage); lesion area rate four days after inoculation, 20°C. As for the experimental part: 5 parts by mass of the 5-membered heteroaryl compound according to the embodiment of the present invention, 93.5 parts by mass of N,N-dimethylformamide, and 1.5 parts by mass of polyoxyethylene sorbitan monolaurate were mixed to obtain an emulsifiable concentrate (1) containing 5% by mass of the active ingredient.
Water was added to the above-described emulsifiable concentrate (1) to obtain a chemical solution having a concentration of the 5-membered heteroaryl compound according to the embodiment of the present invention of 125 ppm by mass or 25 ppm by mass. Subsequently, the chemical solution was sprayed onto cucumber seedlings (cultivar "Jibai" line, cotyledon stage) grown in seedling pots, and then air-dried. Thereafter, a conidial suspension of cucumber gray mold fungus (Botrytis cinerea) was drop-inoculated onto the cucumber seedlings (treated plot). As a control, the conidial suspension of cucumber gray mold fungus (Botrytis cinerea) was drop-inoculated onto cucumber seedlings onto which the chemical solution had not been sprayed (untreated control). The seedlings were allowed to stand in a humid chamber at 20°C. Four days after inoculation, the leaves of the cucumber seedlings were visually observed, and a control value was calculated from the lesion area rate by the following formula. Control value(%) =; 100−{Lesionarearateintreatedplot/Lesionarearateinuntreatedcontrol} x; 100 [formula]

Experiment [7] has as its system grape ripe rot fungus (Glomerella cingulata). The experiment is described as follows: Fungicidal effect test against grape ripe rot fungus (96-well microplate, turbidity). As to conditions: 25 ppm by volume; Vogel's medium; 25°C, 3 days; turbidity OD at 405 nm. As for the experimental part: as §1, §2, §3
The turbidity was measured and the growth inhibition rate was calculated in the same manner as in the fungicidal effect test against the gray mold fungus, except that the spore suspension of gray mold fungus (Botrytis cinerea, Vogel's medium) was changed to a spore suspension of grape ripe rot fungus (Glomerella cingulata, Vogel's medium), and the temperature and period during standing were changed to 25°C and 3 days.

On to `COc1cc(C)ccc1CONC(=O)c1c(Oc2cccc(Br)c2)nnn1C(C)(C)C`, for which the control value in experiment [1] and in experiment [2] was at least 75% each time.
In the case of `Cc1ccc(CONC(=O)c2c(Oc3cccc(C(F)(F)F)c3)nnn2C(C)(C)C)c(Cl)c1`, the growth inhibition rate in experiment [3], in experiment [4], in experiment [5] and in experiment [7] was at least 75% in each case. The control value in experiment [6], in experiment [1] and in experiment [2] was at least 75% in each case.
Compound `Cc1ccc(CONC(=O)c2c(Oc3cccc(Br)c3F)nnn2C(C)(C)C)c(C)c1` displayed a control value in experiment [6] of at least 75%.
For the compound `Cc1ccc(CONC(=O)c2c(Oc3cccc(C(F)(F)F)c3)nnn2C(C)(C)C)c(C)c1`, the growth inhibition rate in experiment [3], in experiment [4], in experiment [5] and in experiment [7] was at least 75% in each case. In addition, the control value in experiment [6], in experiment [1] and in experiment [2] was at least 75% each time.
As for `Cc1ccc(CONC(=O)c2c(Oc3ccccc3)nnn2C(C)(C)C)c(C)c1`, in experiment [6], the control value was at least 75%.
In the case of `Cc1ccc(CONC(=O)c2c(Oc3cccc(Cl)c3)nnn2C(C)(C)C)c(C)c1`, the control value in experiment [6] and in experiment [2] was at least 75% throughout.
Take `Cc1ccc(CONC(=O)c2c(Oc3cccc(Br)c3)nnn2C(C)(C)C)c(C)c1`: the control value in experiment [6] and in experiment [2] was at least 75% each time.
For `Cc1ccc(CONC(=O)c2c(Oc3cccnc3)nnn2C(C)(C)C)c(C)c1`, in experiment [2], the control value is given as at least 75%.
For `COc1ccc(CONC(=O)c2c(Oc3cccc(Cl)c3)nnn2C(C)(C)C)c(C)n1`, in experiment [2], the control value is recorded as at least 75%.
In the case of `CCC(C)(C)n1nnc(Oc2cccc(C)c2)c1C(=O)NOCc1ccc(C)cc1C`, the growth inhibition rate in experiment [3], in experiment [4], in experiment [5] and in experiment [7] was at least 75% in each case.

The values are drawn from patent EP4847490A1, “FIVE-MEMBER HETEROARYL COMPOUND AND BACTERICIDE FOR AGRICULTURAL AND HORTICULTURAL USE” (dated 2026).
